The record followed here is ChEMBL document CHEMBL2401620, “Molecular design, synthesis and biological evaluation of BP-O-DAPY and O-DAPY derivatives as non-nucleoside HIV-1 reverse transcriptase inhibitors” (Eur J Med Chem, 2013).

This assay addresses Human immunodeficiency virus type 1 reverse transcriptase (Human immunodeficiency virus 1, UniProt Q72547, K103N/Y181C). In words: Inhibition of HIV RT K103N/Y181C mutant by cell based assay.

On to `Cc1cc(C#N)cc(C)c1Oc1nc(Nc2ccc(C#N)cc2)nc(N)c1Br` [ETRAVIRINE], for which a half-maximal effect (EC50) was put at 5 nM.

For orientation: EC50 means the concentration at which the effect is half-maximal. Higher therefore signals a need for much substance.
